Results of unrelated studies side by side (data: NIAID ChemDB).

Shared fields: tests in culture; organism: Mycobacterium smegmatis

Rows are shuffled and stem from different studies.

{"SMILES": "CN(C)[C@@H]1C(=O)C(C(N)=O)=C(O)[C@@]2(O)C(=O)C3=C(O)c4c(O)cccc4[C@@](C)(O)[C@H]3C[C@@H]12", "read-out": "MIC", "strain": "PMN1 LFR (CCCP)", "result": "4 µg/mL"}
{"SMILES": "NC1CCN(c2c(F)cn3c(=O)c(C(=O)O)cc(C4CC4)c3c2Cl)C1.O=C(O)C(F)(F)F", "read-out": "MIC", "strain": "ATCC114", "result": "6.2 µg/mL"}
{"SMILES": "NC1CCN(c2c(F)cc3c(=O)c(C(=O)O)cn(-c4ccc(F)cc4F)c3c2F)C1", "read-out": "MIC", "strain": "ATCC 19420", "result": "0.5 µg/mL"}
{"SMILES": "CCCCCCCCCCCCCCCC[N+](C)(C)CC", "read-out": "MIC", "strain": "MC^2 155 (CCCP)", "result": "1 µg/mL"}
{"SMILES": "COc1ccc(Nc2cc(=O)n3c(-c4ccc(N)cc4)csc3n2)cc1S(=O)(=O)O", "read-out": "MIC", "read by": "broth dilution / visual reading", "result": "50 µg/mL"}
{"SMILES": "Cc1c(N2CCC(c3ccccn3)C2)c(F)cn2c(=O)c(C(=O)O)cc(C3CC3)c12.Cl", "read-out": "MIC", "strain": "ATCC114", "result": "0.78 µg/mL"}
{"SMILES": "CCOc1c(N2CCNCC2)c(F)cc2c(=O)c(C(=O)O)cn(C3CC3)c12", "read-out": "MIC", "strain": "ATCC 19420", "result": "0.25 µg/mL"}
{"SMILES": "Cc1ccc(Nc2cc(=O)n3c(-c4cccc([N+](=O)[O-])c4)csc3n2)cc1S(=O)(=O)O", "read-out": "MIC", "read by": "broth dilution / visual reading", "result": ">800 µg/mL"}
{"SMILES": "O=[N+]([O-])[O][Ga]([O][N+](=O)[O-])[O][N+](=O)[O-]", "read-out": "MIC", "strain": "LR222", "result": "400 µM"}
{"SMILES": "CN1CCN(c2c(F)cn3c(=O)c(C(=O)O)cc(-c4ccccc4)c3c2F)CC1.Cl", "read-out": "MIC", "strain": "ATCC114", "result": "6.2 µg/mL"}
{"SMILES": "Cc1ccc(Nc2cc(=O)n3c(-c4cccc([N+](=O)[O-])c4)csc3n2)cc1", "read-out": "MIC", "read by": "broth dilution / visual reading", "result": ">800 µg/mL"}
{"SMILES": "Cc1c(N2CC(CN(C)C)CC3CCCC32)c(F)cn2c(=O)c(C(=O)O)cc(C3CC3)c12.Cl", "read-out": "MIC", "strain": "ATCC114", "result": "3.1 µg/mL"}
{"SMILES": "CC1CN(c2cc3c(cc2F)c(=O)c(C(=O)O)cn3C(C)(C)C)CCN1", "read-out": "MIC", "strain": "ATCC 19420", "result": "0.06 µg/mL"}
{"SMILES": "C=CC1=C(C)C2=Cc3c(C)c(CCC(=O)O)c4[n]3[Ga][n]3c(c(C)c(CC)c3=CC3=NC(=C4)C(CCC(=O)O)=C3C)=CC1=N2", "read-out": "MIC", "strain": "LR222", "result": "0.4 µg/mL"}
{"SMILES": "Cc1c(N2CCN(c3ccccn3)CC2)c(F)cn2c(=O)c(C(=O)O)cc(C3CC3)c12", "read-out": "MIC", "strain": "ATCC114", "result": "0.39 µg/mL"}
{"SMILES": "CC(C)=CCC/C(C)=C/CC/C(C)=C/CO", "read-out": "MIC", "read by": "broth dilution", "strain": "mc2 155 / ATCC 700084", "result": "64 µg/mL"}
{"SMILES": "CCCCc1cnc(C(=O)/C=C/c2ccc(Cl)cc2)cn1", "read-out": "MIC", "read by": "absorbance", "strain": "CCM", "result": ">250 µg/mL"}
{"SMILES": "COc1ccc(Nc2cc(=O)n3c(-c4cccc([N+](=O)[O-])c4)csc3n2)cc1S(=O)(=O)O", "read-out": "MIC", "read by": "broth dilution / visual reading", "result": ">800 µg/mL"}
{"SMILES": "CC(C)(C)c1cnc(C(=O)/C=C/c2ccc(F)cc2)cn1", "read-out": "MIC", "read by": "absorbance", "strain": "CCM", "result": ">125 µg/mL"}
{"SMILES": "C[C@H]1NCc2cc(-c3ccc4c(=O)c(C(=O)O)cn(C5CC5)c4c3OC(F)F)ccc21", "read-out": "MIC", "strain": "A29663", "result": "0.06 µg/mL"}
{"SMILES": "C=CC1CN2CCC1CC2C[C@H](O)c1ccnc2ccc(OC)cc12", "read-out": "MIC99", "read by": "broth dilution", "strain": "ATCC 700084", "result": ">200 µg/mL"}
{"SMILES": "C=CC1=C(C)C2=Cc3c(C=C)c(C)c4[n]3[Sb][n]3c(c(C)c(CCC(=O)O)c3=CC3=NC(=C4)C(C)=C3CCC(=O)O)=CC1=N2", "read-out": "MIC", "strain": "LR222", "result": "20 µg/mL"}
{"SMILES": "CO[C@H]1/C=C/O[C@@]2(C)Oc3c(C)c(O)c4c(O)c(c(/C=N/N5CCN(C)CC5)c(O)c4c3C2=O)NC(=O)/C(C)=C\\C=C\\[C@H](C)[C@H](O)[C@@H](C)[C@@H](O)[C@@H](C)[C@H](OC(C)=O)[C@@H]1C", "read-out": "MIC", "read by": "absorbance", "strain": "CCM", "result": "0.78–1.56 µg/mL"}
{"SMILES": "CC1CN(c2c(F)cc3c(=O)c(C(=O)O)cn(C4CC4)c3c2Br)CC(C)N1", "read-out": "MIC", "strain": "ATCC 19420", "result": "0.13 µg/mL"}
{"SMILES": "C1=CC2=NC1=Cc1ccc3[n]1[Ga][n]1c(ccc1=CC1=NC(=C3)C=C1)=C2", "read-out": "MIC", "strain": "LR222", "result": "5 µg/mL"}
{"SMILES": "O=C(O)c1cn(C2CC2)c2c(F)c(N3CCNCC3)c(F)cc2c1=O", "read-out": "MIC", "strain": "ATCC 19420", "result": "0.25 µg/mL"}
{"SMILES": "Cc1c(N2CC3CCC(C)(NC(=O)[C@H](C)N)C3C2)c(F)cn2c(=O)c(C(=O)O)cc(C3CC3)c12.Cl", "read-out": "MIC", "strain": "ATCC114", "result": "1.56 µg/mL"}
{"SMILES": "O=C(O)c1cn(-c2ccc(F)cc2F)c2nc(N3CCNCC3)c(F)cc2c1=O", "read-out": "MIC", "strain": "ATCC 19420", "result": "0.5 µg/mL"}
{"SMILES": "Cc1ccc(Nc2cc(=O)n3c(-c4ccc([N+](=O)[O-])cc4)csc3n2)cc1S(=O)(=O)O", "read-out": "MIC", "read by": "broth dilution / visual reading", "result": ">800 µg/mL"}
{"SMILES": "NC1CCN(c2c(F)cc3c(=O)c(C(=O)O)cn(C4CC4)c3c2C(F)(F)F)C1", "read-out": "MIC", "strain": "ATCC 19420", "result": "0.25 µg/mL"}
{"SMILES": "COc1ccc(CCN(C)CCCC(C#N)(c2ccc(OC)c(OC)c2)C(C)C)cc1OC", "read-out": "MIC", "read by": "broth dilution", "strain": "mc2 155 / ATCC 700084", "result": "300 µg/mL"}
{"SMILES": "CO[C@H]1/C=C/O[C@@]2(C)Oc3c(C)c(O)c4c(O)c(c(/C=N/N5CCN(C)CC5)c(O)c4c3C2=O)NC(=O)/C(C)=C\\C=C\\[C@H](C)[C@H](O)[C@@H](C)[C@@H](O)[C@@H](C)[C@H](OC(C)=O)[C@@H]1C", "read-out": "MIC", "read by": "broth dilution / visual reading", "result": "7.8 µg/mL"}
{"SMILES": "CCN1CCN(c2nc3c(cc2F)c(=O)c(C(=O)O)cn3-c2ccc(F)cc2F)CC1", "read-out": "MIC", "strain": "ATCC 19420", "result": "0.5 µg/mL"}
{"SMILES": "CC[C@H](NC)[C@@H]1CCN(c2c(F)cn3c(=O)c(C(=O)O)cc(C4CC4)c3c2C)C1.Cl", "read-out": "MIC", "strain": "ATCC114", "result": "0.01 µg/mL"}
{"SMILES": "CC(C)c1cnc(C(=O)/C=C/c2ccccc2Br)cn1", "read-out": "MIC", "read by": "absorbance", "strain": "CCM", "result": "15.6 µg/mL"}
{"SMILES": "CNCC1CCN(c2c(F)cc3c(=O)c(C(=O)O)cn(C4CC4)c3c2C(F)(F)F)C1", "read-out": "MIC", "strain": "ATCC 19420", "result": "4 µg/mL"}
{"SMILES": "CCCc1cnc(C(=O)/C=C/c2ccccc2Br)cn1", "read-out": "MIC", "read by": "absorbance", "strain": "CCM", "result": ">500 µg/mL"}
{"SMILES": "C=CC1=C(C)C2=Cc3c(C=C)c(C)c4[n]3[Ga][n]3c(c(C)c(CCC(=O)O)c3=CC3=NC(=C4)C(C)=C3CCC(=O)O)=CC1=N2", "read-out": "MIC", "strain": "LR222", "result": "0.4 µg/mL"}

For reference, 4 entries again:

C1=CC2=NC1=Cc1ccc3[n]1[Ga][n]1c(ccc1=CC1=NC(=C3)C=C1)=C2 ; read-out: MIC ; strain: LR222 ; result: 5 µg/mL
Cc1ccc(Nc2cc(=O)n3c(-c4ccc([N+](=O)[O-])cc4)csc3n2)cc1S(=O)(=O)O ; read-out: MIC ; read by: broth dilution / visual reading ; result: >800 µg/mL
C=CC1=C(C)C2=Cc3c(C=C)c(C)c4[n]3[Ga][n]3c(c(C)c(CCC(=O)O)c3=CC3=NC(=C4)C(C)=C3CCC(=O)O)=CC1=N2 ; read-out: MIC ; strain: LR222 ; result: 0.4 µg/mL
NC1CCN(c2c(F)cc3c(=O)c(C(=O)O)cn(C4CC4)c3c2C(F)(F)F)C1 ; read-out: MIC ; strain: ATCC 19420 ; result: 0.25 µg/mL

a–b is a range or a potency band. A number after MIC or MFC names an inhibition level or a share of isolates.